By Kd is commonly meant a measure of binding affinity in units of concentration.

For test [1], the target named is full-length gp120 from the A subtype 92UG031 HIV-1 isolate (HIV-1 (A subtype, isolate 92UG031)). The experiment in a line: ITC. Background: ITC needs no label: the signal is the heat of the interaction.
The target in test [2] is gp120-A prebound to 17b (HIV-1 (A subtype, isolate 92UG031)). The experiment in a line: ITC.

As to “Soluble D1-D2-D3-D4 CD4 (from UniProt P01730 26-396) (domain or fragment)”, the Kd in test [1] came out at 0.108 µM. Moreover, the dH in test [1] was -31.3 kcal/mol; in test [2] it was -21.7 kcal/mol.
